Results of unrelated studies side by side (data: NIAID ChemDB).

Common to all: whole-cell or culture tests; organism: Mycobacterium avium complex

ECn: concentration that inhibits the pathogen or its effect by n%. Conditions beyond the fields shown may differ between rows. Blank or dashed fields: not listed here. Inhibition is in % at the dose shown (toxicity tests: loss of growth or viability). MIC50, MIC90 and the like: level of inhibition, or share of isolates inhibited.

CN(C)C1CCN(c2c(F)cc3c(=O)c(C(=O)O)cn(C4CC4)c3c2F)C1 ; strain: 1760694 ; read-out: MIC ; result: 2 µg/mL
CC1(CN)CCN(c2c(F)cc3c(=O)c(C(=O)O)cn(C4CC4)c3c2F)C1 ; read-out: MIC50 ; result: 16 µg/mL
CC(C)N1CCN(c2cc3c(cc2F)c(=O)c(C(=O)O)cn3C2CC2)CC1 ; strain: 14 strains ; read-out: MIC50 ; result: 2 µg/mL
O=C(O)c1cn(C2CC2)c2c(F)c(N3CCS(=O)(=O)CC3)c(F)cc2c1=O ; strain: 1988557 ; read-out: MIC ; result: 4 µg/mL
CCN(CC)CC1CCN(c2c(F)cc3c(=O)c(C(=O)O)cn(C4CC4)c3c2F)C1 ; read-out: MIC90 ; result: 8 µg/mL
CNC1CCN(c2c(F)cc3c(=O)c(C(=O)O)cn(C4CC4)c3c2F)C1 ; strain: 1760694 ; read-out: MIC ; result: 8 µg/mL
O=C(O)c1cn(C2CC2)c2c(F)c(N3CCC(NC4CC4)C3)c(F)cc2c1=O ; read-out: MIC90 ; result: 8 µg/mL
CC[C@@H](CO)NCCN[C@@H](CC)CO ; strain: 168-4 ; read-out: MBC ; result: 30 µg/mL
CC(C)(C)n1cc(C(=O)O)c(=O)c2cc(F)c(N3CCNCC3)nc21 ; read-out: MIC90 ; result: 4 µg/mL
NC[C@H]1O[C@H](O[C@H]2[C@H](O)[C@@H](O[C@H]3O[C@H](CO)[C@@H](O)[C@H](N)[C@H]3O)[C@H](N)C[C@@H]2N)[C@H](O)[C@@H](O)[C@@H]1O ; strain: TMC 1406 ; read-out: MIC ; result: 0.39 µg/mL
CO/N=C(/C(=O)N[C@@H]1C(=O)N2C(C(=O)[O-])=C(C[N+]3(C)CCCC3)CS[C@H]12)c1csc(N)n1 ; strain: 14 strains ; read-out: inhibition ; dose: 8 µg/mL ; result: 0%
CC[C@@H](CO)NCCN[C@@H](CC)CO ; strain: 921 ; read-out: MBC ; result: 15 µg/mL
O=C(O)c1cn(C2CC2)c2c(F)c(N3CCC(N4CCCC4)C3)c(F)cc2c1=O ; strain: 1172733 ; read-out: MIC ; result: 2 µg/mL
CC1CN(c2c(F)c(N)c3c(=O)c(C(=O)O)cn(C4CC4)c3c2F)CCN1C ; read-out: MIC50 ; result: 0.5 µg/mL
Nc1ccc(C(=O)O)c(O)c1 ; strain: 713 strains ; method: agar ; read-out: inhibition ; dose: 2 µg/mL ; result: 4%
CC(C)N=c1cc2n(-c3ccc(Cl)cc3)c3ccccc3nc-2cc1Nc1ccc(Cl)cc1 ; strain: CH-3/HIV+ ; read-out: MIC ; result: 0.5 µg/mL
COc1c(N2CCN(C(C)C)CC2)c(F)cc2c(=O)c(C(=O)O)cn(C3CC3)c12 ; strain: 14 strains ; read-out: MIC50 ; result: 2 µg/mL
O=[N+]([O-])[O][Ga]([O][N+](=O)[O-])[O][N+](=O)[O-] ; strain: 2 ; read-out: inhibition ; dose: 500 µM ; result: 70%
O=[N+]([O-])c1ccc(Sn2cnc3c(=S)nc[nH]c32)cc1 ; method: resazurin ; read-out: EC50 ; result: <12.5 µM
CC1(CN)CCN(c2c(F)cc3c(=O)c(C(=O)O)cn(C4CC4)c3c2F)C1 ; strain: 1988557 ; read-out: MIC ; result: 32 µg/mL
CO[C@H]1/C=C/O[C@@]2(C)Oc3c(C)c(O)c4c(O)c(c(/C=N/N5CCN(C/C=C/c6ccccc6)CC5)c(O)c4c3C2=O)NC(=O)/C(C)=C\C=C\[C@H](C)[C@H](O)[C@@H](C)[C@@H](O)[C@@H](C)[C@H](OC(C)=O)[C@@H]1C ; strain: SK-32 ; read-out: MBC ; result: 4 µg/mL
CN[C@@H]1[C@H](O[C@H]2[C@H](O[C@H]3[C@H](O)[C@@H](O)[C@H](N=C(N)N)[C@@H](O)[C@@H]3N=C(N)N)O[C@@H](C)[C@]2(O)C=O)O[C@@H](CO)[C@H](O)[C@H]1O ; strain: Isolate 122 ; read-out: MIC ; result: 50 µg/mL
NC[C@H]1O[C@H](O[C@H]2[C@H](O)[C@@H](O[C@H]3O[C@H](CO)[C@@H](O)[C@H](N)[C@H]3O)[C@H](N)C[C@@H]2N)[C@H](O)[C@@H](O)[C@@H]1O ; strain: Isolate C-16 ; read-out: MIC ; result: >400 µg/mL
CO[C@H]1/C=C/O[C@@]2(C)Oc3c(C)c(O)c4c(O)c(c(/C=N/N5CCN(C)CC5)c(O)c4c3C2=O)NC(=O)/C(C)=C\C=C\[C@H](C)[C@H](O)[C@@H](C)[C@@H](O)[C@@H](C)[C@H](OC(C)=O)[C@@H]1C ; strain: 52 isolates ; read-out: MIC50 ; result: 6.25 µg/mL
CO[C@H]1/C=C/O[C@@]2(C)Oc3c(C)c(O)c4c(O)c(c5c(c4c3C2=O)NC2(CCN(CC(C)C)CC2)N=5)=NC(=O)/C(C)=C\C=C\[C@H](C)[C@H](O)[C@@H](C)[C@@H](O)[C@@H](C)[C@H](OC(C)=O)[C@@H]1C ; strain: 3350-4 ; read-out: MBC ; result: 1 µg/mL
NCCC[C@H](N)CC(=O)N[C@H]1CNC(=O)[C@H]([C@H]2C[C@H](O)NC(N)=N2)NC(=O)/C(=C/NC(N)=O)NC(=O)[C@H](CO)NC(=O)[C@H](CO)NC1=O ; strain: Isolate 122 ; read-out: MIC ; result: 100 µg/mL
O=C(O)c1cn(C2CC2)c2nc(N3CCNCC3)c(F)cc2c1=O ; strain: 14 strains ; read-out: MIC50 ; result: 4 µg/mL
C[C@@H]1CN(c2c(F)c(N)c3c(=O)c(C(=O)O)cn(C4CC4)c3c2F)C[C@H](C)N1 ; strain: 30 ; method: broth dilution ; read-out: MIC ; result: 1 µg/mL
Cc1ccc(-n2cc(C(=O)O)c(=O)c3cc(F)c(N4CCNCC4)cc32)cc1 ; strain: 14 strains ; read-out: MIC50 ; result: ≥32 µg/mL
CC1CN(c2c(F)cc3c(=O)c(C(=O)O)cn(C4CC4)c3c2F)C(C)CN1 ; read-out: MIC90 ; result: 4 µg/mL
CCN1CCN(c2nc3c(cc2F)c(=O)c(C(=O)O)cn3C(C)(C)C)CC1 ; strain: 14 strains ; read-out: MIC50 ; result: 1 µg/mL
NC[C@H]1O[C@H](O[C@H]2[C@H](O)[C@@H](O[C@H]3O[C@H](CO)[C@@H](O)[C@H](N)[C@H]3O)[C@H](N)C[C@@H]2N)[C@H](N)[C@@H](O)[C@@H]1O ; strain: TMC 1411 ; read-out: MIC ; result: 0.1 µg/mL
CCn1cc(C(=O)O)c(=O)c2cc(F)c(N3CCNCC3)nc21 ; strain: 14 strains ; read-out: MIC50 ; result: ≥32 µg/mL
NC[C@@H]1O[C@H](O[C@H]2[C@@H](O)[C@H](O[C@@H]3[C@@H](O)[C@H](N)C[C@H](N)[C@H]3O[C@H]3O[C@H](CO)[C@@H](O)[C@H](O)[C@H]3N)O[C@@H]2CO)[C@H](N)[C@@H](O)[C@@H]1O ; strain: CH-1/HIV+ ; read-out: MIC ; result: 3.12 µg/mL
CCNCC1CCN(c2c(F)cc3c(=O)c(C(=O)O)cn(C4(C)CC4)c3c2F)C1 ; strain: 14 strains ; read-out: MIC90 ; result: 16 µg/mL
NC[C@H]1O[C@H](O[C@H]2[C@H](O[C@@H]3O[C@H](CO)[C@@H](O)[C@H]3O)[C@@H](O)[C@H](N)C[C@@H]2N)[C@H](N)[C@@H](O)[C@@H]1O ; strain: Isolate 135 ; read-out: MIC ; result: 25 µg/mL
Cc1ccc(-n2cc(C(=O)O)c(=O)c3cc(F)c(N4CC(C)NC(C)C4)cc32)c(C)c1 ; strain: 14 strains ; read-out: MIC50 ; result: ≥32 µg/mL
NC[C@@H]1O[C@H](O[C@H]2[C@@H](O)[C@H](O[C@@H]3[C@@H](O)[C@H](N)C[C@H](N)[C@H]3O[C@H]3O[C@H](CO)[C@@H](O)C[C@H]3N)O[C@@H]2CO)[C@H](N)[C@@H](O)[C@@H]1O[C@H]1O[C@H](CO)[C@@H](O)[C@H](O)[C@@H]1O ; strain: Isolate 53 ; read-out: MIC ; result: 12.5 µg/mL

3 of the rows above, restated:

SMILES | strain | method | read-out | dose | result
CC[C@@H](CO)NCCN[C@@H](CC)CO | 168-4 | - | MBC | - | 30 µg/mL
O=C(O)c1cn(C2CC2)c2c(F)c(N3CCS(=O)(=O)CC3)c(F)cc2c1=O | 1988557 | - | MIC | - | 4 µg/mL
O=C(O)c1cn(C2CC2)c2nc(N3CCNCC3)c(F)cc2c1=O | 14 strains | - | MIC50 | - | 4 µg/mL